Experimental data published in patent publication US20250002563A1, “Broadly neutralizing nanobodies for coronavirus and uses thereof” (UNIVERSITY OF PITTSBURGH OF THE COMMONWEALTH SYSTEM OF …, published 2025).
Numbering of substitutions follows the chain as printed.

B1: 4P-56 (VHH)
VHH: QVQLVESGGGLVQAGGSLRLSCAASGRTDSISDMGWFRQAPGKEREFVAVVGWSGGGTDYAHSVKGRFTISRDNAKNTVYLQMNSLKPEDTAVYYCAVGSLRVGSFSVEYWGQGTQVTVSS
notes: class IV psNb
B2: R37 (VHH)
VHH: QVQLVESGGGLVQTGGSLRLSCAASGRTFSNYVMGWFRQAPGKEREFVSSIEWNSENTFYANSVKGRFTISRDNAKNTVYLQMNSLKAEDTAVYYCAADRGSSYYYTRASEYTYWGQGTQVTVSS
B3: 5p-38 (VHH)
VHH: QVQLVESGGGLVQAGGSLRLSCAAAARFSTSAMGWFRQAPGKEREFVAAISWSNTNTHYADTVKGRFTISADTAKETVDLQMNSLKPEDTAVYYCVQGGWGIRQPIIVDYWGKGTQVTVSS
notes: class II(B) psNb
B4: 5p-126 (VHH)
VHH: B3 VHH with I50V, D79Y, V96A, I102L, R103T
B5: 5p-78 (VHH)
VHH: B3 VHH with Q1H, I50V, T57I, D79Y, E88D, V96A, I102L, R103T
B6: 4P-47 (VHH)
VHH: B3 VHH with Q1H, A25D, N54G, T55A, A71T, E76N, D79Y, V96A, R103T, I107S
B7: 5p-124 (VHH)
VHH: HVQLVESGGGLVQAGDSLRLSCAASRIFSTSAMGWFRQAPGKEREFVAAISWSGGNVHYLDSVKGRFAISADNSKSTVFLQMNSLKPEDTAVYYCAQGGWGIRQVIEVDYWGKGTQVTVSS
B8: 5p-125 (VHH)
VHH: B7 VHH with G55T, V57T, L60A, S62P, A71T, S74A, S76N, F79Y, I102L, V105P
B9: 5p-59 (VHH)
VHH: QVQLVESGGGLVQAGGSLRLSCAVSGRTISTFGMAWFRQAPGKVREFVATITRDEDLTLYADSVKGRFTISRDTAKNTVFLQMNSLKIEDTALYYCAVRRDDSWGYSRQSIEYDYWGQGTQVTVSS
B10: 5p-60 (VHH)
VHH: B9 VHH with A35G, V44E, L57M, T58L, T78M, D102S, I111T
notes: class II(A) psNb
B11: 4P-42 (VHH)
VHH: HVQLVESGGGLVQAGGSLRLSCAASGRTFSRYAAGWFRQAPGKEREFVAVIEWDGDNAYYADSVKGRFTISRDNAKNTVYLQMNRLKPEDTAVYICAVGGNHYSPNKYYTADEYDYWGQGTQVTVSS
B12: 5p-35 (VHH)
VHH: B11 VHH with N57S, S63P, P105R, N106S, T110N, A111L, Y116D
notes: class II(B) psNb
B13: 5p-119 (VHH)
VHH: QVQLVESGGGLVQAGGSLRLSCAASRRTFSNYAAGWFRQAPGKEREFVAVIEWNGESAYYADSVKGRFTISRDNAKNTVYLQMNRLKPEDTAIYICAIGGNHYSRSKYYIADEYDYWGQGTQVTVSS
B14: 5p-34 (VHH)
VHH: B13 VHH with A23T, R26G, N31R, E56D, A61T, V64A, A75T, I93V, R105P
B15: 5p-121 (VHH)
VHH: B11 VHH with H1D, E46S, N57T, A61S, V79L, P105S, N106S, T110I
B16: 5p-120 (VHH)
VHH: B11 VHH with N57S, P105R, N106S, T110N, A111L
B17: 4P-71 (VHH)
VHH: B11 VHH with Y32F, E52D, D54N, D56G, N57S, E89G, V98I, S104D, N106S, K107R
B18: 5p-117 (VHH)
VHH: DVQLVESGGGLVQAGESLRLSCAASGRTFRNFAAGWFRQTPGKDREFVAVIEYNGDSAYYADSVKGRFTISRDNAKNTVYLQMNRLKPGDTAVYICAIGGNHYDPSKYYIADEYDYWGQGTQVTVSS
B19: 5p-118 (VHH)
VHH: B18 VHH with D1Q, G26K, R27P, N54D, I110T
notes: class II(B) psNb
B20: 5p-182 (VHH)
VHH: EVQLVESGGGLVQTGGSLRLSCALSGYTFSIFPTAWFRQAPGKEREFVAGIRWNGSTRDYTEYADFVKGRFTISRDNAKNMVYLQMISLKPEDTALYYCAASDGVIDGTNANAYRYWGQGTQVTVSS
notes: class I psNb
B21: R113 (VHH)
VHH: HVQLVESGGGLVQPGGSLRLSCAASGRSFNSYLMGWFRQAPGKEREFVAWISGSPHDIIRYRDSVKDRFTISRDNAKNTVYLQMNSLKPVDTAVYYCAVGSLRVGSFSPDYWGQGTQVTVSS
B22: 5p-132 (VHH)
VHH: QVQLVESGGGLVQAGGSLRLSCTASGYDFSILAIAWYRQAPGKERELVAAISRVGSTDYADSVKGRFTISRDNTKNTVSLQMDSLKPEDTAVYYCNAGIPMTTVLSGLGFWGQGTQVTVSS
notes: class IV psNb
B23: 4P-17 (VHH)
VHH: HVQLVESGGGLVQAGASLRLSCAASGRTASNYVMGWFRQAAGKEREFVAHISWSGDETNYADSVRGRFIISRDNAENTVYLQMNSLKPEDTAVYYCAADRGYSLMYYSSREYTYWGQGTQVTVSS

Assays:
[1] = target: RBDRmYN02-CoV (RmYN02-CoV S protein residues 298-503, C-terminal His-tag) (RmYN02-CoV); assay: ELISA
[2] = target: T1, RBDBM-4831-CoV (BM-4831-CoV S protein residues 310-530, C-terminal His-tag) (BM-4831-CoV); assay: ELISA
T1 construct: range 310-530

[3] = target: spike of SARS-CoV-2 Delta strain (authentic virus) (SARS-CoV-2); assay: cell-based or functional assay

Row | Binder | IC50 [1] [nM] | IC50 [2] [nM] | PRNT SARS-CoV-2 Delta IC50 [3] [nM]
1 | B1 | < 10 | < 10 | 
2 | B2 | < 10 |  | 
3 | B3 | < 10 |  | 34.7
4 | B4 | < 10 |  | 
5 | B5 | < 10 |  | 
6 | B6 | < 10 |  | 
7 | B7 | 10 |  | 
8 | B8 | < 10 |  | 
9 | B9 | < 10 |  | 
10 | B10 | 10 |  | 8.74
11 | B11 | < 10 |  | 
12 | B12 | < 10 |  | 21
13 | B13 | < 10 |  | 
14 | B14 | < 10 |  | 
15 | B15 | < 10 |  | 
16 | B16 | < 10 |  | 
17 | B17 | < 10 |  | 
18 | B18 | < 10 |  | 
19 | B19 | < 10 | < 10 | 3.62
20 | B20 |  |  | 0.31
21 | B21 | < 10 | < 10 | 
22 | B22 | < 10 | < 10 | 
23 | B23 | < 10 |  | 
